A mixed list of measured activities; the numbers were collected in NIAID ChemDB.

Shared fields: enzyme or target tests; agent: Hepatitis C virus

a–b is a range or a potency band. Inhibition is in % at the dose shown (toxicity tests: loss of growth or viability). Blank or dashed fields: not listed here. Neighbouring rows are from separate reports. ICn: concentration for n% inhibition.

smiles	read-out	target	dose	value
CC(C)CN(C(=O)c1ccc(Cl)cc1Cl)c1cc(-c2ccccc2)sc1C(=O)O	IC50	NS3 ATPase		<5 µM
O=C(NCC(c1ccccc1)c1ccccc1)Nc1cscc1-c1nc(C(=O)O)c(O)c(=O)[nH]1	IC50	HCV polymerase		<25 µM
c1ccc(COc2ccc(-c3cnc4c(-c5nn[nH]n5)cnn4c3C3CCCCC3)cc2)nc1	IC50	RNA-dependent RNA polymerase		1–10 µM
O=C(O)c1sc(-c2ccccc2)cc1NC(=O)N1CCC(n2c(=O)[nH]c3ccccc32)CC1	IC50	NS3 ATPase		>20 µM
COc1ccc(C2CCCCC2)c(-c2ccc3cc(-c4nc5cc(C(=O)O)ccc5n4C4CCCCC4)ccc3n2)c1	inhibition	NS5B polymerase	33 µM	99.18%
O=C(O)c1cnn2c(C3CCCCC3)c(-c3ccc(Cl)cc3Cl)cnc12	IC50	RNA-dependent RNA polymerase		1–10 µM
CC(=O)c1cccc(-c2cc(N(C)C(=O)c3ccc(C)cc3)c(C(=O)O)s2)c1	IC50	NS3 ATPase		5–20 µM
CNC(=O)c1c(-c2ccc(F)cc2)oc2cc(C3CCOC3)c(OC)cc12	IC50	Nonstructural protein 5B		≤0.5 µM
CC(=O)c1ccc(-c2cc(NS(=O)(=O)c3c(C)cccc3C)c(C(=O)O)s2)s1	IC50	NS3 ATPase		<5 µM
Cc1cc(-c2ccccc2)nc2ccc(-c3nc4cc(C(=O)O)ccc4n3C3CCCCC3)cc12	inhibition	NS5B polymerase	33 µM	98.48%
O=C(O)c1cc2nc(-c3ccc(Cl)cc3)cc(-c3cc(Cl)cc(Cl)c3)n2n1	IC50	RNA-dependent RNA polymerase		>10 µM
NC(=O)c1cc(-c2ccc3cc(-c4nc5cc(C(=O)O)ccc5n4C4CCCCC4)ccc3n2)ccc1O	inhibition	NS5B polymerase	33 µM	97.62%
CNC(=O)c1c(-c2ccc(F)cc2)oc2cc(C#N)c(OC)cc12	IC50	Nonstructural protein 5B		≤0.5 µM
COC(=O)c1nc(-c2sccc2NC(=O)c2ccccc2C(=O)O)[nH]c(=O)c1O	IC50	HCV polymerase		<50 µM
COc1cccc(-c2nc3ccc(-c4nc5cc(C(=O)O)ccc5n4C4CCCCC4)cc3nc2-c2cccc(OC)c2)c1	inhibition	NS5B polymerase	33 µM	96.17%
CC(NC(=O)Nc1cscc1-c1nc(C(=O)O)c(O)c(=O)[nH]1)c1cccs1	IC50	HCV polymerase		<25 µM
O=C(O)c1cc2nccc(-c3ccccc3-c3ccccc3F)n2n1	IC50	RNA-dependent RNA polymerase		>10 µM
COc1ccc(-c2ccc(Cl)cc2)c(-c2ccc3cc(-c4nc5cc(C(=O)O)ccc5n4C4CC56CCC5CCC46)ccc3n2)c1	inhibition	NS5B polymerase	100 µM	100%
O=C(NS(=O)(=O)C(F)(F)F)c1cc2nc(-c3ccco3)c(C3CCCCC3)c(=O)n2[nH]1	IC50	RNA-dependent RNA polymerase		1–10 µM
COc1cccc(-c2ccc3cc(-c4nc5cc(C(=O)O)ccc5n4C4CCCCC4)ccc3n2)c1	inhibition	NS5B polymerase	100 µM	97.89%
O=C(O)c1cc2nc(-c3ccc(C(F)(F)F)cc3)cc(-c3ccc(OCc4ccccc4)cc3)n2n1	IC50	RNA-dependent RNA polymerase		1–10 µM
O=C(Nc1cccc(-c2nc(C(=O)O)c(O)c(=O)[nH]2)c1)NC1Cc2ccccc2C1	IC50	HCV polymerase		<100 µM
Cc1cccc(CN(C(=O)C(C)C)c2cc(-c3ccccc3)sc2C(=O)O)c1	IC50	NS3 ATPase		5–20 µM
O=C(O)c1nc(-c2cc(Br)cs2)[nH]c(=O)c1O	IC50	HCV polymerase		<25 µM
O=C(N[C@H](C(=O)O)c1ccccc1)c1cnn2c(C3CCCCC3)c(-c3ccc(F)cc3)cnc12	IC50	RNA-dependent RNA polymerase		<1 µM
CNC(=O)c1c(-c2ccc(F)cc2)oc2cc(C(=O)CO)c(OC)cc12	IC50	Nonstructural protein 5B		≤0.5 µM
O=C(COc1ccc(OC(F)(F)F)cc1)Nc1cscc1-c1nc(C(=O)O)c(O)c(=O)[nH]1	IC50	HCV polymerase		<25 µM
Cc1cccc(N2CCN(C(=O)Nc3cc(-c4ccccc4)sc3C(=O)O)CC2)n1	IC50	NS3 ATPase		5–20 µM
CNC(=O)c1c(-c2ccc(F)cc2)oc2cc(N(C3CCCC3)S(C)(=O)=O)c(OC(C)C)cc12	IC50	Nonstructural protein 5B		≤0.5 µM
CC(=O)Nc1ccc(-c2ccc3cc(-c4nc5cc(C(=O)O)ccc5n4C4CCCCC4)ccc3n2)cc1	inhibition	NS5B polymerase	100 µM	96.82%
O=C(Nc1ccc(OC(F)(F)F)cc1)Nc1cccc(-c2nc(C(=O)O)c(O)c(=O)[nH]2)c1	IC50	HCV polymerase		<100 µM
COc1ccc(-c2ccccc2C)c(-c2ccc3cc(-c4nc5cc(C(=O)O)ccc5n4C4CCCCC4)ccc3n2)c1	inhibition	NS5B polymerase	100 µM	101%
O=C(N[C@@H](C(=O)O)C1CCCCC1)c1cnn2c(C3CCCCC3)c(-c3ccc(F)cc3)cnc12	IC50	RNA-dependent RNA polymerase		<1 µM
CC(=O)c1ccc(-c2cc(NS(=O)(=O)c3ccc(C)cc3)c(C(=O)O)s2)cc1	IC50	NS3 ATPase		<5 µM

Repeating the first 5 entries:

smiles,read-out,target,dose,value
CC(C)CN(C(=O)c1ccc(Cl)cc1Cl)c1cc(-c2ccccc2)sc1C(=O)O,IC50,NS3 ATPase,,<5 µM
O=C(NCC(c1ccccc1)c1ccccc1)Nc1cscc1-c1nc(C(=O)O)c(O)c(=O)[nH]1,IC50,HCV polymerase,,<25 µM
c1ccc(COc2ccc(-c3cnc4c(-c5nn[nH]n5)cnn4c3C3CCCCC3)cc2)nc1,IC50,RNA-dependent RNA polymerase,,1–10 µM
O=C(O)c1sc(-c2ccccc2)cc1NC(=O)N1CCC(n2c(=O)[nH]c3ccccc32)CC1,IC50,NS3 ATPase,,>20 µM
COc1ccc(C2CCCCC2)c(-c2ccc3cc(-c4nc5cc(C(=O)O)ccc5n4C4CCCCC4)ccc3n2)c1,inhibition,NS5B polymerase,33 µM,99.18%